Data taken from article PMC5527654.

Assays:
[1] = target: T1, 6xHis-PA3225 (Pseudomonas aeruginosa UCBPP-PA14) (UniProt A0A0H2ZDR5); experiment: pull-down; settings: 2 ug protein; recombinant protein; residues 1-309; protein details: N-terminal 6xHis (pET30a, BamHI/HindIII); label: 5' biotin on CH3 strand; probe letters rebuilt from the primers and the …
T1 sequence: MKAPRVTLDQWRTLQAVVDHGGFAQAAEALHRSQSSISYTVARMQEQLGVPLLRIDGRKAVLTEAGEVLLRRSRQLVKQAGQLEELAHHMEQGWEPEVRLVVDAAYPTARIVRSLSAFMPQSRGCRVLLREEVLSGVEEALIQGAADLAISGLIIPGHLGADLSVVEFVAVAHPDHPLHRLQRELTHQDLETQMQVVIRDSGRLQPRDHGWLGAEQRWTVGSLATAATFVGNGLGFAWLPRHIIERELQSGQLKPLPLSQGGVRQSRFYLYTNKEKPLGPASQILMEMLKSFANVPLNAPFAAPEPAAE

[2] = target: T1, 6xHis-PA3225 (Pseudomonas aeruginosa UCBPP-PA14); experiment: EMSA; settings: recombinant protein, residues 1-309, protein details: N-terminal 6xHis (pET30a, BamHI/HindIII), probe letters rebuilt from the primers and the genome
[3] = target: T1, 6xHis-PA3225 (Pseudomonas aeruginosa UCBPP-PA14); experiment: competition with a labelled probe; settings: versus 5 nM Cy5-PtssABC1, 1 uM protein; recombinant protein; residues 1-309; protein details: N-terminal 6xHis (pET30a, BamHI/HindIII); probe letters rebuilt from the primers and the genome

Question: Does “AAAACGGGTACATCCAGCACGGTGACGATCTCCCTATCATCGGAGCCGCTGCGCGGCCCTCACCTTCGCTTGTAAGATCCACTCCGTCGGATCTTGTAGGAGCCATTGATGAATATCGGATGACTCGAAAGGTTGGCAAAATTCTTGTGGCATGCCGCAAGGCTTGTCAAGGAAGGCACAACGCCACTAGTTGCATGACACCGCAGATCGGACAAATCTTTAAAAGACGTAGGATTAGTCTTTTATAATCCGGTACCACCCGATGTGTCTTCCCGAGGCGACGAAACGCCGGAAAGCCGTCGGGCCAGCCTGGATGCGAACCGAAATCCCTCGGGCACGGGGGTGAGCGCCTGGAAGAGCCGGGCGCTGGCAATGCAAGGAGTAGCAATGCCGCTGCGATTGACCATCACCAGCTACCACAAGCTGA (double strand) [Biotin-PtssABC1 bait]” bind [1]?
Answer: binds

Question: Does “AAAACGGGTACATCCAGCACGGTGACGATCTCCCTATCATCGGAGCCGCTGCGCGGCCCTCACCTTCGCTTGTAAGATCCACTCCGTCGGATCTTGTAGGAGCCATTGATGAATATCGGATGACTCGAAAGGTTGGCAAAATTCTTGTGGCATGCCGCAAGGCTTGTCAAGGAAGGCACAACGCCACTAGTTGCATGACACCGCAGATCGGACAAATCTTTAAAAGACGTAGGATTAGTCTTTTATAATCCGGTACCACCCGATGTGTCTTCCCGAGGCGACGAAACGCCGGAAAGCCGTCGGGCCAGCCTGGATGCGAACCGAAATCCCTCGGGCACGGGGGTGAGCGCCTGGAAGAGCCGGGCGCTGGCAATGCAAGGAGTAGCAATGCCGCTGCGATTGACCATCACCAGCTACCACAAGCTGA (double strand) [Cy5-PtssABC1]” bind ([2]; complex observed at 600 nM protein, label: 5' Cy5 on CH17 …)?
Answer: binds

Question: Does “AAAACGGGTACATCCAGCACGGTGACGATCTCCCTATCATCGGAGCCGCTGCGCGGCCCTCACCTTCGCTTGTAAGATCCACTCCGTCGGATCTTGTAGGAGCCATTGATGAATATCGGATGACTCGAAAGGTTGGCAAAATTCTTGTGGCATGCCGCAAGGCTTGTCAAGGAAGGCACAACGCCACTAGTTGCATGACACCGCAGATCGGACAAATCTTTAAAAGACGTAGGATTAGTCTTTTATAATCCGGTACCACCCGATGTGTCTTCCCGAGGCGACGAAACGCCGGAAAGCCGTCGGGCCAGCCTGGATGCGAACCGAAATCCCTCGGGCACGGGGGTGAGCGCCTGGAAGAGCCGGGCGCTGGCAATGCAAGGAGTAGCAATGCCGCTGCGATTGACCATCACCAGCTACCACAAGCTGA (double strand) [PtssABC1 unlabeled]” bind [3]?
Answer: binds

Question: Does “ATGGCTGGCGTTCGTTGCATAGCGTTGTCCTCATGAGCGAAAGCGGCCGATGCAGCGTGAAGGCGCTGCACCGGCTCGAAGAAGGCAGGCAAAATACTTACATTCATAGGTGTTTGTAAACGTCCGAAAGCCTCGCGTGAAAACACCTGAAACGTTTTAGCTCGATGGCCGGTTATCCACCCGGCGCCATGGCCCATATTCAGAACCTGAAACAAGGTTGATAAGGTCAACTAAAATAAGCAAAATAGTTGACTGGATCAACCACATTTACATTAGGTTTACTCGGCCAAACCAATGAACTACCCCGTGAATCCCGACCTGATGCCCGCGCTGATGGCGGTCTTCCAGCATGTACGGACGCGCATCCAGAGCGAGCTCGATT (double strand) [Cy5-PmexAB-oprM probe 1]” bind ([2]; label: 5' Cy5 on CH30 strand)?
Answer: binds
